Results on two compounds are retold here after patent publication US8084602B2, “Porphyrin derivatives and their use in photodynamic therapy” (Destiny Pharma Limited, priority 2002, dated 2011).

The test system of one data set is E. coli cells. The data set is described as follows: Binding of compounds with bacterial cells. The format is cell-based. The following applies: 5 min incubation.
Data set [1] deals with human dermal fibroblasts (NHDF). The data set is described as follows: Sub-cellular distribution, fluorescence microscopy. As to conditions: 1 μM, 1 hour. The format is cell-based.

In the case of `C[N+](C)(C)CCCOc1ccc(-c2c3nc(cc4ccc([nH]4)c(-c4ccc(OCCC[N+](C)(C)C)cc4)c4nc(cc5ccc2[nH]5)C=C4)C=C3)cc1.[Cl-].[Cl-]` [Compound 10, 5,15-bis-[4-(3-Trimethylammonio-propyloxy)-phenyl]-porphyrin dichloride], the “Bound compound (nmoles/mg cell proteins)” value in the data set on E. coli cells (0.01 μM, 0 washings) is 0.026 ± 0.005 nmoles/mg cell proteins; in the data set on E. coli cells (0.01 μM, 3 washings) it was 0.015 ± 0.0004 nmoles/mg cell proteins; in the data set with E. coli cells (0.1 μM, 0 washings), 0.274 ± 0.05 nmoles/mg cell proteins; in the data set on E. coli cells (0.1 μM, 3 washings) it was 0.078 ± 0.02 nmoles/mg cell proteins; in the data set with E. coli cells (0.5 μM, 0 washings), 1.542 ± 0.350 nmoles/mg cell proteins; in the data set on E. coli cells (0.5 μM, 3 washings), 0.334 ± 0.092 nmoles/mg cell proteins. The “Bound compound (nmoles/mg cell proteins)” value with E. coli cells (1 μM, 0 washings) was found to be 2.70 ± 0.354 nmoles/mg cell proteins; with E. coli cells (1 μM, 3 washings), 1.278 ± 0.102 nmoles/mg cell proteins. Further, the “co-staining with lysosomal-specific dye (LysoTrackerGreen)” value in data set [1] is “different localization of Compound 10 and lysosomal fluorescence”. The “co-staining with mitochondria-specific Rhodamine G6” value in data set [1] is “co-localisation of Compound 10 and fluorescence of mitochondria”. Moreover, the “sub-cellular localisation relative to nucleus” value in data set [1] (Hoechst 33342 co-stain) is given as “localised extra-nuclearly”.

Take `C[N+](C)(C)CCCOc1cccc(-c2c3nc(cc4ccc([nH]4)c(-c4cccc(OCCC[N+](C)(C)C)c4)c4nc(cc5ccc2[nH]5)C=C4)C=C3)c1.[Cl-].[Cl-]` [Compound 12, 5,15-bis-[3-(3-trimethylammonio-propyloxy)-phenyl]-porphyrin dichloride]: the “Bound compound (nmoles/mg cell proteins)” value with E. coli cells (0.01 μM, 0 washings) is reported as 0.041 ± 0.02 nmoles/mg cell proteins; with E. coli cells (0.01 μM, 3 washings), 0.021 ± 0.005 nmoles/mg cell proteins; in the data set with E. coli cells (0.1 μM, 0 washings), 0.151 ± 0.02 nmoles/mg cell proteins; with E. coli cells (0.1 μM, 3 washings), 0.089 ± 0.02 nmoles/mg cell proteins; in the data set with E. coli cells (0.5 μM, 0 washings), 0.806 ± 0.14 nmoles/mg cell proteins; with E. coli cells (0.5 μM, 3 washings), 0.622 ± 0.10 nmoles/mg cell proteins. Further, the “Bound compound (nmoles/mg cell proteins)” value in the data set with E. coli cells (1 μM, 0 washings) is 2.70 ± 0.30 nmoles/mg cell proteins; with E. coli cells (1 μM, 3 washings), 1.930 ± 0.20 nmoles/mg cell proteins.
